Laboratory results reported in PMC3172200 (2011).

Columns and labels:
[1] = tested on: binding of SEB to cell-surface CD28; assay: Binding of SEB to cell-surface CD28 (transfected 293-T cells, western blot); settings: 293-T cells transfected with CD28; 10 µg/ml peptide 1 h, then 15 µg/ml wt SEB 1 h; western blot with αSEB; three independent experiments
[2] = tested on: induction of IL2 and IFN-γ mRNA by SEA; assay: Induction of IL2 and IFN-γ mRNA in PBMC by SEA; settings: 0.1 µg/ml peptide
[3] = tested on: IL2 and IFN-γ mRNA induction by TSST-1; assay: Induction of IL2 and IFN-γ mRNA in PBMC by TSST-1; settings: 10 µg/ml peptide

SMILES: CC(C)C[C@H](NC(=O)[C@H](Cc1c[nH]cn1)NC(=O)[C@H](CCCCN)NC(=O)CNC(=O)[C@H](CCCCN)NC(=O)[C@@H](NC(=O)[C@H](Cc1c[nH]cn1)NC(=O)[C@@H](C)N)C(C)C)C(=O)N[C@@H](CS)C(=O)N1CCC[C@H]1C(=O)N[C@H](C)C(=O)O
- Block of binding of SEB to cells expressing CD28 [1]: block binding
- Inhibition of IL2 and IFN-γ mRNA induction by SEA [2]: as sensitive as SEB
- Inhibition of IL2 and IFN-γ mRNA induction by TSST-1 [3]: inhibited
